Paper PMC5329690 (International Journal of Peptides, 2017)

Assay: general procedure: Fmoc solid-phase peptide synthesis; Fmoc-Rink-amide ChemMatrix, 0.47 mmol/g; HBTU/DIEA
Details: whole synthesis

## BodiFluor-O2Oc-Tat(48-60)-O2Oc-Asp(paromomycin)-amide
  isolated mass: 15.5 mg
Scale of the general procedure 50 μmoL
  isolated yield: 10% yield

## Bodi Fluor-O2Oc-Tat(48-60)-O2Oc-Asp(COOH)-amide
Analytical RP-HPLC, UV 220 nm, scale of the general procedure 50 μmoL
  final HPLC purity: >95%
